Anti-infective test results gathered from many reports (values: NIAID ChemDB through PubChem).

Common to all: tests in culture; organism: Measles virus; measure: EC50

An empty or dashed field is not shown. Conditions beyond the fields shown may differ between rows. ECn: concentration that inhibits the pathogen or its effect by n%.

smiles | strain or isolate | cells | method | value
CSc1nsc(-c2ccccc2)c1C(N)=O | Edmonston | HEP-2 | plaque count | >250 µg/mL
COc1c(C)c2c(c(O)c1CC(=O)O)C(=O)OC2 | Sugiyama | VERO | plaque count | 0.2 µg/mL
CC[C@H](/C=C/[C@@H](C)[C@H]1CC[C@H]2[C@@H]3CC(=O)[C@H]4C[C@H](O)[C@H](O)C[C@]4(C)[C@H]3CC[C@]12C)C(C)C | MV/Brazil/001/91 | VERO | plaque count | 40 µM
Nc1ncnc2c1c(Cl)cn2[C@@H]1O[C@H](CO)[C@@H](O)[C@H]1O | Niigata-1 | VERO | plaque count | >1.6 µg/mL
N#Cc1c(N2CCCC2)nsc1-c1ccccc1 | Edmonston | HEP-2 | plaque count | >7 µg/mL
Nc1cc2[nH]cnc2c(=O)[nH]1 | Niigata-1 | VERO | plaque count | 0.7 µg/mL
OCC1OC2OC3C(CO)OC(OC4C(CO)OC(OC5C(CO)OC(OC6C(CO)OC(OC7C(CO)OC(OC8C(CO)OC(OC9C(CO)OC(OC1C(O)C2O)C(O)C9O)C(O)C8O)C(O)C7O)C(O)C6O)C(O)C5O)C(O)C4O)C(O)C3O | Edmonston | VERO | plaque count | >2560 µM
CC[C@@H](C(C)C)[C@@H](O)[C@H](O)[C@@H](C)[C@H]1CC[C@H]2[C@@H]3CC(=O)[C@H]4C[C@@H](Br)CC[C@]4(C)[C@H]3CC[C@]12C | MV/Brazil/001/91 | VERO | plaque count | 76 µM
N#CCSc1nsc(-c2ccccc2)c1C#N | Edmonston | HEP-2 | plaque count | >10 µg/mL
Nc1ncnc2c1ncn2[C@@H]1C[C@@H](O)[C@H](CO)O1 | - | CV-1 | - | >100 µM
NC(=O)c1ncn([C@@H]2O[C@H](CO)[C@@H](O)[C@H]2O)n1 | SA | CV-1 | neutral red | 20 µg/mL
CCCc1cc(=O)oc2cc(O)cc(O)c12 | - | - | cytopathic effect | 100 µg/mL
CN(C)c1nsc(-c2ccccc2)c1C#N | Edmonston | HEP-2 | plaque count | >15 µg/mL
C[C@@H](O)C1=C[C@@H](n2cnc3c(N)ncnc32)[C@H](O)[C@@H]1O | Sugiyama | VERO | plaque count | 0.15 µg/mL
CCCSc1nsc(-c2ccccc2)c1C(=O)O | Edmonston | HEP-2 | plaque count | >500 µg/mL
NC12CC3CC(CC(C3)C1)C2 | Kitaken-1 | VERO | plaque count | 130 µg/mL
NC(=O)c1ncn([C@@H]2O[C@H](CO)[C@@H](O)[C@H]2O)n1 | Sugiyama | HeLa | plaque count | 8 µg/mL
CC[C@@H](C(C)C)[C@H](O)[C@@H](O)[C@@H](C)[C@H]1CC[C@H]2[C@@H]3CC(=O)[C@H]4C[C@@H](OC(C)=O)CC[C@]4(C)[C@H]3CC[C@]12C | MV/Brazil/001/91 | VERO | plaque count | 30 µM
N#Cc1c(N2CCCCC2)nsc1-c1ccccc1 | Edmonston | HEP-2 | plaque count | >25 µg/mL
Nc1nc(=O)c2nc(-c3ccccc3)n([C@@H]3O[C@H](CO)[C@@H](O)[C@H]3O)c2c(=O)[nH]1 | - | HepG2.2.15 | neutral red | 0.5 µM
OC[C@H]1O[C@@H]2O[C@H]3[C@H](O)[C@@H](O)[C@@H](O[C@H]4[C@H](O)[C@@H](O)[C@@H](O[C@H]5[C@H](O)[C@@H](O)[C@@H](O[C@H]6[C@H](O)[C@@H](O)[C@@H](O[C@H]7[C@H](O)[C@@H](O)[C@@H](O[C@H]1[C@H](O)[C@H]2O)O[C@@H]7CO)O[C@@H]6CO)O[C@@H]5CO)O[C@@H]4CO)O[C@@H]3CO | Edmonston | VERO | plaque count | >2560 µM
CCCSc1nsc(-c2ccccc2)c1C#N | Edmonston | HEP-2 | plaque count | >200 µg/mL
NC(=O)c1csc([C@@H]2O[C@H](CO)[C@@H](O)[C@H]2O)n1 | Edmonston | HeLa | cytopathic effect | 86 µg/mL
N#Cc1c(N2CCOCC2)nsc1-c1ccccc1 | Edmonston | HEP-2 | plaque count | >1 µg/mL
Nc1nc2c(ncn2CCOCP(=O)(O)O)c(=O)[nH]1 | CC | - | neutral red | 10 µg/mL
CCSc1nsc(-c2ccccc2)c1C#N | Edmonston | HEP-2 | plaque count | >100 µg/mL
Nc1ncnc2c1ncn2[C@@H]1C=C(CO)[C@@H](O)[C@H]1O | Niigata-1 | VERO | plaque count | 6.5 µg/mL
Nc1ncnc2c1ncn2[C@@H]1C[C@@H](O)[C@H](CO)O1 | - | CV-1 | - | >100 µM

For reference, 4 entries again:

smiles,strain or isolate,cells,method,value
CSc1nsc(-c2ccccc2)c1C(N)=O,Edmonston,HEP-2,plaque count,>250 µg/mL
N#CCSc1nsc(-c2ccccc2)c1C#N,Edmonston,HEP-2,plaque count,>10 µg/mL
Nc1ncnc2c1ncn2[C@@H]1C=C(CO)[C@@H](O)[C@H]1O,Niigata-1,VERO,plaque count,6.5 µg/mL
Nc1nc2c(ncn2CCOCP(=O)(O)O)c(=O)[nH]1,CC,-,neutral red,10 µg/mL